Assay results taken from paper PMC5514147, “Characterization of HIV-1 integrase interaction with human Ku70 protein and initial implications for drug targeting” (Scientific Reports, 2017).

B1: Ku70_1-250 mutant (N-terminal alpha/beta-domain of Ku70) with N-terminal GST-tag (domain or fragment)
chain: MSGWESYYKTEGDEEAEEEQEENLEASGDYKYSGRDSLIFLVDASKAMFESQSEDELTPFDMSIQCIQSVYISKIISSDRDLLAVVFYGTEKDKNSVNFKNIYVLQELDNPGAKRILELDQFKGQQGQKRFQDMMGHGSDYSLSEVLWVCANLFSDVQFKMSHKRIMLFTNEDNPHGNDSAKASRARTKAGDLRDTGIFLDLMHLKKPGGFDISLFYRDIISIAEDEDLRVHFEESSKLEDLLRKVRAKE
notes: Ku70, human, residues 1-250 (N-terminal alpha/beta domain); also called Ku_1-250; Ku70 N-terminal domain; not shown: GST, N-terminal, kept
B2: Ku70_1-318 deletion mutant with N-terminal GST-tag (domain or fragment)
chain: MSGWESYYKTEGDEEAEEEQEENLEASGDYKYSGRDSLIFLVDASKAMFESQSEDELTPFDMSIQCIQSVYISKIISSDRDLLAVVFYGTEKDKNSVNFKNIYVLQELDNPGAKRILELDQFKGQQGQKRFQDMMGHGSDYSLSEVLWVCANLFSDVQFKMSHKRIMLFTNEDNPHGNDSAKASRARTKAGDLRDTGIFLDLMHLKKPGGFDISLFYRDIISIAEDEDLRVHFEESSKLEDLLRKVRAKETRKRALSRLKLKLNKDIVISVGIYNLVQKALKPPPIKLYRETNEPVKTKTRTFNTSTGGLLLPSDTKR
notes: Ku70, human, residues 1-318 (STOP codon added at 319 in pGEX-6p-1-Ku70); not shown: GST, N-terminal, kept

Target: T1, recombinant HIV-1 integrase with N-terminal His6-tag (HIV-1)
T1 construct: Plasmid provided by J-F. Mouscadet; source: E. coli, purified by the His6 tag; not shown: His6, N-terminal, kept
Test: pull-down; GST-pull-down: GST-Ku70 proteins (or GST) held on glutathione-agarose, His6-IN proteins as prey; buffer A (20 mM Hepes pH 7.5, 100 mM NaCl, 7.5 mM MgCl2, 2 mM 2-mercaptoethanol, 50 ug/ml BSA, 0.1% NP40), room temperature, Western blot; Kd from increasing IN at 50 nM Ku70 mutant
Conditions: both partners purified

Row | Binder | Kd [nM]
1 | B1 | 100 ± 30
2 | B2 | 90 ± 25
